Source: patent publication US20070190523A1 (priority 2002, published 2007)

Tests used:
[1] = system: mutant HIV-1 with I84V/L90M mutations; format: cell-based; settings: fold difference in EC50 vs wild type, class symbols
[2] = system: recombinant HIV-1 8K/46I/90M; assay: Cross-Resistance Profile Assay; format: cell-based
[3] = system: recombinant HIV-1 46I/47V/50V; assay: Cross-Resistance Profile Assay; format: cell-based
[4] = system: recombinant HIV-1 30N/50S/82I/88D; assay: Cross-Resistance Profile Assay; format: cell-based
[5] = system: recombinant HIV-1 10F/46I/71V/82T/90M; assay: Cross-Resistance Profile Assay; format: cell-based
[6] = system: recombinant HIV-1 48V/54V/71V/82S; assay: Cross-Resistance Profile Assay; format: cell-based
[7] = system: recombinant HIV-1 46I/84A; assay: Cross-Resistance Profile Assay
[8] = system: recombinant HIV-1 10I/48V/54V/82A; assay: Cross-Resistance Profile Assay
[9] = system: recombinant HIV-1 10R/46I/82T/84V; assay: Cross-Resistance Profile Assay
[10] = system: recombinant HIV-1 54V/71V/82S; assay: Cross-Resistance Profile Assay

Row | SMILES | I84V/L90M fold change [1] | Fold Change in EC50 Relative to WT HIV-1 [2] | Fold Change in EC50 Relative to WT HIV-1 [3] | Fold Change in EC50 Relative to WT HIV-1 [4] | Fold Change in EC50 Relative to WT HIV-1 [5] | Fold Change in EC50 Relative to WT HIV-1 [6] | Fold Change in EC50 Relative to WT HIV-1 [7] | Fold Change in EC50 Relative to WT HIV-1 [8] | Fold Change in EC50 Relative to WT HIV-1 [9] | Fold Change in EC50 Relative to WT HIV-1 [10]
1 | CCCCOC(=O)C(C)NP(=O)(COc1ccc(CC(NC(=O)OC2COC3OCCC23)C(O)CN(CC(C)C)S(=O)(=O)c2ccc(OC)cc2)cc1)NC(C)C(=O)OCCCC (centres unmarked) [drawing 606 R1=Ala-Bu R2=Ala-Bu] | − (≦3) |  |  |  |  |  |  |  |  | 
2 | CCOC(=O)C(C)NP(=O)(COc1ccc(CC(NC(=O)OC2COC3OCCC23)C(O)CN(CC(C)C)S(=O)(=O)c2ccc(OC)cc2)cc1)Oc1ccccc1 (centres unmarked) [drawing 608 R1=OPh R2=Ala-Et] | − (≦3) |  |  |  |  |  |  |  |  | 
3 | CCCCOC(=O)C(C)NP(=O)(COc1ccc(CC(NC(=O)OC2COC3OCCC23)C(O)CN(CC(C)C)S(=O)(=O)c2ccc(OC)cc2)cc1)NC(C)C(=O)OCCCC (centres unmarked) [GS-16503] |  | 1.2 fold | 3.3 fold | 0.6 fold | 1 fold | 0.5 fold | 1 fold | 0.4 fold | 1 fold | 0.9 fold
